A mixed list of measured activities; the numbers were collected in NIAID ChemDB.

All rows: enzyme or target tests

a–b is a range or a potency band. Blank or dashed fields: not listed here. ICn is the concentration giving n% inhibition. Inhibition is in % at the dose shown (toxicity tests: loss of growth or viability). Conditions beyond the fields shown may differ between rows.

| structure | target | strain | species | endpoint | tested at | read by | result |
|---|---|---|---|---|---|---|---|
| CC(=O)Nc1ccc(CNC(=O)c2cn3c(c(O)c2=O)C(=O)N(Cc2ccc(F)cc2)CC3)cc1 | Integrase |  | HIV-1 | IC50 |  | ELISA | 0.01–0.1 µM |
| CCNc1cncc(-c2ccc(C(N)=O)cc2)n1 | UL97 kinase |  | Cytomegalovirus | IC50 |  |  | <10 µM |
| COc1cccc(-c2cc(-c3ccc(-c4ccccc4)cc3)n3nc(C(=O)O)cc3n2)c1 | RNA-dependent RNA polymerase |  | Hepatitis C virus | IC50 |  |  | 1–10 µM |
| O=c1c(-c2cccnc2)cn2ccn(Cc3cccc(Cl)c3)c(=O)c2c1O | Integrase |  | HIV-1 | IC50 |  | ELISA | <0.01 µM |
| COc1cc(NCc2cccc3nc(N)nc(N)c23)c(Br)c(OC)c1OC | Dihydrofolate reductase | TYPE 1 | Cryptosporidium parvum | IC50 |  |  | >10 µM |
| CSc1ccc(-c2cncc(N3CCN(c4cccc(C)c4)C(C)C3)n2)cc1 | UL97 kinase |  | Cytomegalovirus | inhibition | 10 µM |  | >15% |
| c1ccc(Oc2ccc(-c3cnc4c(-c5nn[nH]n5)cnn4c3-c3ccccc3)cc2)cc1 | RNA-dependent RNA polymerase |  | Hepatitis C virus | IC50 |  |  | >10 µM |
| Fc1ccccc1N1CCN(c2cncc(-c3cc(C(F)(F)F)cc(C(F)(F)F)c3)n2)CC1 | UL97 kinase |  | Cytomegalovirus | inhibition | 10 µM |  | >15% |
| CC(=O)Nc1cn2ccn(Cc3ccc(F)c(Cl)c3)c(=O)c2c(O)c1=O | Integrase |  | HIV-1 | IC50 |  | ELISA | <0.01 µM |
| Cc1cccc(N2CCN(c3cncc(-c4ccc(C(N)=O)cc4)n3)CC2C)c1 | UL97 kinase |  | Cytomegalovirus | inhibition | 1 µM |  | <50% |
| N#Cc1cnn2c(-c3ccccc3)c(-c3ccc(OCc4ccccc4)cc3)cnc12 | RNA-dependent RNA polymerase |  | Hepatitis C virus | IC50 |  |  | >10 µM |
| CC(C)Oc1ccc(CN2CCn3cc(-c4nccs4)c(=O)c(O)c3C2=O)cc1Cl | Integrase |  | HIV-1 | IC50 |  | ELISA | 0.01–0.1 µM |
| Cc1ccc(N2CCN(c3cncc(-c4cc(C)cc(C)c4)n3)CC2)cc1 | UL97 kinase |  | Cytomegalovirus | inhibition | 10 µM |  | >15% |
| COc1cc(CN(C)c2ccc3nc(N)nc(N)c3c2Cl)cc(OC)c1OC | Dihydrofolate reductase | TYPE 2 | Cryptosporidium parvum | IC50 |  |  | 0.038 µM |
| O=C(O)c1c[nH]n2c(=O)cc(-c3ccccc3Cl)nc12 | RNA-dependent RNA polymerase |  | Hepatitis C virus | IC50 |  |  | >10 µM |
| c1ccc(Oc2ccc(-c3cncc(N4CCN(c5ccncc5)CC4)n3)cc2)cc1 | UL97 kinase |  | Cytomegalovirus | IC50 |  |  | <10 µM |
| COCc1c(-c2ccccn2)c(=O)c(O)c2n1CCN(Cc1ccc(F)cc1)C2=O | Integrase |  | HIV-1 | IC50 |  | ELISA | 0.01–0.1 µM |
| Cc1cccc(N2CCN(c3cncc(-c4csc5ccccc45)n3)CC2C)c1 | UL97 kinase |  | Cytomegalovirus | IC50 |  |  | <100 µM |
| O=C(NCc1ccccc1)c1cn2c(c(O)c1=O)C(=O)N(Cc1ccc(F)cc1)CC2 | Integrase |  | HIV-1 | IC50 |  | ELISA | 0.01–0.1 µM |
| COc1cccc(-c2cncc(N3CCN(c4ccccc4)CC3)n2)c1 | UL97 kinase |  | Cytomegalovirus | inhibition | 1 µM |  | <50% |
| O=C(O)c1cc2nc(-c3ccc(Cl)cc3)cc(Nc3cccc(OCc4ccccc4)c3)n2n1 | RNA-dependent RNA polymerase |  | Hepatitis C virus | IC50 |  |  | >10 µM |
| COc1cc(NCc2c(Br)sc3nc(N)nc(N)c23)cc(OC)c1OC | Dihydrofolate reductase | TYPE 2 | Cryptosporidium parvum | IC50 |  |  | >10 µM |
| CN(C)C(=O)Cc1cn2ccn(Cc3cccc(Cl)c3)c(=O)c2c(O)c1=O | Integrase |  | HIV-1 | IC50 |  | ELISA | 0.01–0.1 µM |
| OCc1ccc(-c2cncc(N3CCN(c4ccc(F)cc4F)CC3)n2)cc1 | UL97 kinase |  | Cytomegalovirus | inhibition | 10 µM |  | >15% |
| O=C(O)c1cc2nccc(-c3ccccc3-c3cccc(Cl)c3)n2n1 | RNA-dependent RNA polymerase |  | Hepatitis C virus | IC50 |  |  | >10 µM |
| CC(C)c1cn(Cc2cccc(Cl)c2)c(=O)c2c(O)c(=O)c(-c3cccc(Cl)c3)cn12 | Integrase |  | HIV-1 | IC50 |  | ELISA | 0.01–0.1 µM |
| O=C(O)c1cc2nc(-c3ccc(Oc4ccccc4)cc3)cc(-c3cc(Cl)cc(Cl)c3)n2n1 | RNA-dependent RNA polymerase |  | Hepatitis C virus | IC50 |  |  | >10 µM |
| CC(C)CC(=O)c1cn2ccn(Cc3ccc(F)cc3)c(=O)c2c(O)c1=O | Integrase |  | HIV-1 | IC50 |  | ELISA | 0.01–0.1 µM |
| CC(=O)NCCNC(=O)c1cc2nccc(-c3ccc(-c4ccc(Cl)s4)cc3)n2n1 | RNA-dependent RNA polymerase |  | Hepatitis C virus | IC50 |  |  | >10 µM |
| CC(C)(C)C1CCc2nc(N)nc(N)c2C1 | Dihydrofolate reductase | TYPE 1 | Cryptosporidium parvum | IC50 |  |  | 0.21 µM |

For reference, 2 entries again:

c1ccc(Oc2ccc(-c3cnc4c(-c5nn[nH]n5)cnn4c3-c3ccccc3)cc2)cc1 ; target: RNA-dependent RNA polymerase ; species: Hepatitis C virus ; endpoint: IC50 ; result: >10 µM
O=C(O)c1cc2nccc(-c3ccccc3-c3cccc(Cl)c3)n2n1 ; target: RNA-dependent RNA polymerase ; species: Hepatitis C virus ; endpoint: IC50 ; result: >10 µM